Patent US11555006B2, “Elucidation of novel 13-series resolvins that increase with atorvastatin and clear infections” (The Brigham and Women's Hospital, Inc., priority 2015, dated 2023)

Experiments:
[1] = Peripheral blood lipid mediator profiles during self-resolving E. coli infections in mice; type: in vivo; settings: endogenous level, E. coli 1×10^5 CFU/mouse
[2] = Peripheral blood lipid mediator profiles pre and post-exercise in healthy volunteers (LC-MS-MS); type: in vivo, human; settings: endogenous level, mean, n=4
[3] = Plasma lipid mediator levels in reference plasma, healthy volunteers and sepsis patients (LC-MS-MS); type: in vivo, human; settings: endogenous level; for Reference Plasma lipid mediator level: NIST SRM 1950 plasma, mean; for Healthy Volunteer lipid mediator level / Sepsis Patients Plasma lipid mediator level: plasma; for Healthy Volunteer lipid mediator level: n=4, mean; for Sepsis Patients Plasma lipid mediator level: n=9, mean

Compound	lipid mediator level 0 h [1]	lipid mediator level 4 h [1]	lipid mediator level 12 h [1]	lipid mediator level 24 h [1]	lipid mediator level 48 h [1]	Post-Exercise lipid mediator level [2]	Pre-Exercise lipid mediator level [2]	Reference Plasma lipid mediator level [3]	Healthy Volunteer lipid mediator level [3]	Sepsis Patients Plasma lipid mediator level [3] [pg/mL]
7,8,13-trihydroxy-docosapentaenoic [RvT2]	9.4 pg/mL	50.3 pg/mL	14.1 pg/mL	5.2 pg/mL	5.2 pg/mL					
CCCCCC(O)/C=C/C=C\C/C=C\C=C\C(O)CCCC(=O)O (centres unmarked) [5,15-diHETE]	95.0 pg/mL	121.1 pg/mL	51.6 pg/mL	36.4 pg/mL	19.2 pg/mL	89.1 pg/mL	74.0 pg/mL	4.2 pg/mL	6.2 pg/mL	87.1
CCCCC[C@H](O)/C=C/[C@@H]1[C@H](C/C=C\CCCC(=O)O)[C@@H](O)C[C@H]1O [8-iso-PGF2a]	8.1 pg/mL	227.6 pg/mL	255.0 pg/mL	64.5 pg/mL	71.6 pg/mL	3.9 pg/mL	6.6 pg/mL	4.5 pg/mL	1.9 pg/mL	11.8
CCCCCC(O)/C=C/C=C/C/C=C/CCCC(=O)O (centres unmarked) [12-HHT]	89.8 pg/mL	12598.1 pg/mL	12879.5 pg/mL	3208.8 pg/mL	4237.5 pg/mL	177.6 pg/mL	109.0 pg/mL	21.8 pg/mL	39.6 pg/mL	127.7
CCCCC/C=C\C[C@@H](O)/C=C/C=C/C=C\[C@@H](O)CCCC(=O)O [LTB4, leukotriene B4]	0.7 pg/mL	100.3 pg/mL	35.9 pg/mL	12.0 pg/mL	106.9 pg/mL	14.4 pg/mL	4.5 pg/mL	25.2 pg/mL	3.7 pg/mL	3.3
CCCCC[C@H](O)/C=C/C=C\C=C\C=C\[C@@H](O)[C@@H](O)CCCC(=O)O [LXA4]	12.6 pg/mL	39.9 pg/mL	70.7 pg/mL	16.7 pg/mL	46.0 pg/mL	8.0 pg/mL	3.6 pg/mL	* (*below limits; limits ~0.1 pg.)	0.8 pg/mL	5.5
CCCCC[C@H](O)[C@H](O)/C=C/C=C/C=C\C=C\[C@@H](O)CCCC(=O)O [LXB4]	41.1 pg/mL	73.9 pg/mL	143.9 pg/mL	37.2 pg/mL	36.2 pg/mL	19.3 pg/mL	7.4 pg/mL	8.7 pg/mL	3.2 pg/mL	56.7
CC/C=C\C/C=C\C[C@H](O)\C=C/C=C/C=C/[C@H](O)C/C=C\CCC(=O)O [MaR1]	* (* = below limits limits ~0.1 pg.)	* (* = below limits limits ~0.1 pg.)	* (* = below limits limits ~0.1 pg.)	* (* = below limits limits ~0.1 pg.)	* (* = below limits limits ~0.1 pg.)	* (* = below limits; limits ~0.1 pg.)	* (* = below limits; limits ~0.1 pg.)	* (*below limits; limits ~0.1 pg.)	* (*below limits; limits ~0.1 pg.)	7.4
CC/C=C\C[C@H](O)\C=C/C=C/C=C/[C@H](O)C/C=C\C/C=C\CCC(=O)O [PD1]	1.8 pg/mL	4.2 pg/mL	4.1 pg/mL	3.0 pg/mL	3.9 pg/mL	0.5 pg/mL	0.3 pg/mL	* (*below limits; limits ~0.1 pg.)	1.2 pg/mL	1.5
CCCCC[C@H](O)/C=C/[C@H]1C(=O)C[C@H](O)[C@@H]1C/C=C\CCCC(=O)O [PGD2]	7.7 pg/mL	353.5 pg/mL	273.4 pg/mL	77.3 pg/mL	106.3 pg/mL	31.2 pg/mL	6.5 pg/mL	7.3 pg/mL	9.8 pg/mL	79.4
CCCCC[C@H](O)/C=C/[C@H]1[C@H](O)CC(=O)[C@@H]1C/C=C\CCCC(=O)O [PGE2]	9.2 pg/mL	1602.0 pg/mL	1775.6 pg/mL	323.0 pg/mL	414.3 pg/mL	148.4 pg/mL	115.2 pg/mL	17.8 pg/mL	24.1 pg/mL	132.1
CC/C=C\C[C@H](O)/C=C/C=C\C/C=C\C/C=C\C=C\[C@@H](O)CCC(=O)O [RvD6]	51.4 pg/mL	346.8 pg/mL	435.8 pg/mL	259.3 pg/mL	219.4 pg/mL					
CCC(O)/C=C/C=C\C=C\C(O)C/C=C\C=C\C(O)CCCCCC(=O)O (centres unmarked) [RvT1, 7,13,20-trihydroxy-docosapentaenoic acid]	6.4 pg/mL	34.6 pg/mL	12.6 pg/mL	6.8 pg/mL	10.3 pg/mL					
CCC=CCC=CC=CC(O)C(O)C=CC=CC(O)CCCCCC(=O)O (centres unmarked) [RvT3, 7,12,13-trihydroxy-docosapentaenoic acid]	11.5 pg/mL	32.7 pg/mL	16.4 pg/mL	3.3 pg/mL	5.2 pg/mL					
CC/C=C\C/C=C\C=C\C(O)C/C=C\C=C\C(O)CCCCCC(=O)O (centres unmarked) [RvT4, 7,13-dihydroxy-docosapentaenoic acid]	10.2 pg/mL	45.5 pg/mL	10.4 pg/mL	5.1 pg/mL	4.8 pg/mL					
